Anti-infective test results gathered from many reports (values: NIAID ChemDB through PubChem).

Shared fields: whole-cell or culture tests; organism: Candida albicans; measure: MIC

Blank or dashed fields: not listed here. Rows are shuffled and stem from different studies.

{"structure": "CCCSc1ccc2nc(NC(=O)OC)[nH]c2c1", "strain": "92-889", "conditions": "24 h", "result": "5 µg/mL"}
{"structure": "O=C(/C=C/c1ccccc1)N(CCO)CCO", "result": "0.003 µg/mL"}
{"structure": "O=C(N/N=C/c1ccc([N+](=O)[O-])cc1)c1ccc(CNc2nc3ccccc3[nH]2)cc1", "read by": "broth dilution", "result": "25 µg/mL"}
{"structure": "CC1CC(C)CN(c2nc(Cl)nc(NC3CC3)n2)C1", "strain": "MTCC 183", "read by": "agar", "result": "200 µg/mL"}
{"structure": "CCCCCCCCCC(=O)[C@@H](C)C(=O)N[C@@H](CC(C)C)C(=O)N[C@H](C)C(=O)N1CCC[C@H]1C(=O)N[C@H](C(=O)N[C@H]1CSCCNC1=O)C(C)C", "strain": "Day185", "read by": "broth dilution", "result": ">200 µM"}
{"structure": "N#Cc1ccc(/C=N/NC(=O)c2ccc(CNc3nc4ccccc4[nH]3)cc2)cc1", "read by": "broth dilution", "result": "25 µg/mL"}
{"structure": "CCCCCCCOC[n+]1cccc(NCn2nnc3ccccc32)c1", "strain": "ATCC 10231", "result": ">1284 µM"}
{"structure": "CCCCCCCCCC(=O)C(C)C(=O)N[C@@H](CC(C)C)C(=O)N[C@H](C)C(=O)N1CCC[C@H]1C(=O)N[C@H](C(=O)N[C@@H](CC)C(=O)NCCO)C(C)C", "strain": "Day185", "read by": "broth dilution", "result": ">200 µM"}
{"structure": "COc1ccc(/C=C/C(=O)O)cc1", "result": "0.002 µg/mL"}
{"structure": "NC(=NC1CCCC1)c1ccc(-c2ccc(-c3ccc(C(N)=NC4CCCC4)cc3)o2)cc1", "strain": "Isolate 3028 fluconazole-resistant", "result": "12.5 µg/mL"}
{"structure": "CC(C)N1CCN(c2nc(Nc3ccc(C#N)c(C(F)(F)F)c3)nc(Oc3cccc4cccnc34)n2)CC1", "strain": "MTCC 183", "read by": "agar", "result": "100 µg/mL"}
{"structure": "O=[N+]([O-])c1ccc(C2CC(c3cccs3)=NN2c2nc(-c3ccccc3)cs2)cc1", "strain": "Clinical isolates", "result": "125 µg/mL"}
{"structure": "O=C(CSc1nnc(-c2ccc(N=Cc3cccs3)cc2)o1)Nc1ccccc1Cl", "strain": "MTCC 227", "read by": "broth dilution", "result": "500 µg/mL"}
{"structure": "CCCCCCOCn1c[n+](CNC(=O)c2cccnc2)c2ccccc21", "strain": "ATCC 10231", "result": "1242 µM"}
{"structure": "c1ccc(-c2csc(N3N=C(c4cccs4)CC3c3ccc4c(c3)OCO4)n2)cc1", "strain": "Clinical isolates", "result": "250 µg/mL"}
{"structure": "CC(C)C[C@@H]1NC(=O)[C@@H]2CCCN2C1=O", "strain": "MTCC 277", "read by": "broth dilution", "result": "50 µg/mL"}
{"structure": "O=C(/C=C/c1ccccc1)N1CCOCC1", "result": "0.002 µg/mL"}
{"structure": "CCCCCCCCCCCOC[n+]1cccc(NCn2cnc3ccccc32)c1", "strain": "ATCC 10231", "result": "70 µM"}
{"structure": "O=C(/C=C/c1ccccc1)Oc1ccccc1", "result": "0.002 µg/mL"}
{"structure": "COc1ccc(CN2CCN(c3nc(NCCNc4ncnc5c(Br)cc(Br)cc45)nc(NC4CC4)n3)CC2)c(OC)c1OC", "strain": "MTCC 183", "read by": "agar", "result": "25 µg/mL"}
{"structure": "CCCCOC(=O)/C=C/c1ccccc1", "result": "0.002 µg/mL"}
{"structure": "CCCCCCCCOc1ccc(-c2ccc(C(=O)NC3CC(NCCN)CNC(=O)[C@@H]4[C@@H](O)[C@@H](C)CN4C(=O)[C@@H](CO)NC(=O)[C@H]([C@H](O)Cc4ccccc4)NC(=O)[C@@H]4C[C@@H](O)CN4C(=O)[C@H]([C@@H](C)O)NC3=O)cc2)cc1", "strain": "98-234", "result": "0.5 µg/mL"}
{"structure": "O=C(CSc1nnc(-c2ccc(N=Cc3cccs3)cc2)o1)Nc1ccccc1[N+](=O)[O-]", "strain": "MTCC 227", "read by": "broth dilution", "result": "250 µg/mL"}
{"structure": "Cc1ccc(-c2csc(N3N=C(c4cccs4)CC3c3ccc(C)cc3)n2)cc1", "strain": "Clinical isolates", "result": "62.5 µg/mL"}
{"structure": "CCN(CC)c1ccc(/C=N/NC(=O)c2ccc(CNc3nc4ccccc4[nH]3)cc2)cc1", "read by": "broth dilution", "result": "100 µg/mL"}
{"structure": "N#Cc1ccc(Nc2nc(Oc3cccc4cccnc34)nc(N3CCN(c4ccccn4)CC3)n2)cc1C(F)(F)F", "strain": "MTCC 183", "read by": "agar", "result": "6.25 µg/mL"}
{"structure": "CCCCCCCCCCCCCCCC(=O)NC(CCCCN)C(=O)NC(CCCCN)C(N)=O", "strain": "4890", "read by": "broth dilution", "result": "4 µg/mL"}
{"structure": "CC#CC#CC#Cc1ccccc1", "strain": "ATCC 18804", "result": "50 µg/mL"}
{"structure": "O=C(CSc1nnc(-c2ccc(N=Cc3cccs3)cc2)o1)Nc1ccc([N+](=O)[O-])cc1", "strain": "MTCC 227", "read by": "broth dilution", "result": "100 µg/mL"}
{"structure": "CCCCCCCCCCCCOC[n+]1cccc(NCNc2ccc[n+](COCCCCCCCCCCCC)c2)c1", "strain": "ATCC 10231", "result": "93 µM"}
{"structure": "O=C(N/N=C/c1ccc(O)cc1)c1ccc(CNc2nc3ccccc3[nH]2)cc1", "read by": "broth dilution", "result": "50 µg/mL"}
{"structure": "CCCCCCCCCOC[n+]1cccc(NCNc2ccc[n+](COCCCCCCCCC)c2)c1", "strain": "ATCC 10231", "result": "13.5 µM"}
{"structure": "N#Cc1ccc(Nc2nc(Oc3cccc4cccnc34)nc(N3CCN(c4ccccc4)CC3)n2)cc1C(F)(F)F", "strain": "MTCC 183", "read by": "agar", "result": "50 µg/mL"}
{"structure": "O=C(CSc1nnc(-c2ccc(N=Cc3cccs3)cc2)o1)Nc1ccccc1", "strain": "MTCC 227", "read by": "broth dilution", "result": "500 µg/mL"}
{"structure": "CN(C)c1ccc(/C=N/NC(=O)c2ccc(CNc3nc4ccccc4[nH]3)cc2)cc1", "read by": "broth dilution", "result": "50 µg/mL"}
{"structure": "C[C@@H](c1ncncc1F)[C@](O)(Cn1cncn1)c1ccc(F)cc1F", "strain": "OY-12-99 (fluconazole-resistant)", "result": "4 µg/mL"}
{"structure": "Brc1cc(Br)c2ncnc(NCCNc3nc(NC4CC4)nc(N4CCC(Cc5ccccc5)CC4)n3)c2c1", "strain": "MTCC 183", "read by": "agar", "result": "100 µg/mL"}
{"structure": "O=C(O)c1ccc(/C=N/NC(=O)c2ccc(CNc3nc4ccccc4[nH]3)cc2)cc1", "read by": "broth dilution", "result": "25 µg/mL"}
{"structure": "Cc1ccc(-c2csc(N3N=C(c4cccs4)CC3c3ccccc3)n2)cc1", "strain": "Clinical isolates", "result": "62.5 µg/mL"}
{"structure": "O=C1N[C@@H](Cc2ccc(O)cc2)C(=O)N2CCC[C@H]12", "strain": "MTCC 277", "read by": "broth dilution", "result": "32 µg/mL"}
{"structure": "CCN(CC)C(=O)/C=C/c1ccccc1", "result": "0.002 µg/mL"}
{"structure": "Cc1nc(CC(=O)C(F)(F)F)oc1C", "result": ">50 µg/mL"}
{"structure": "CC(C)N1CCN(c2nc(NCCNc3ncnc4c(Br)cc(Br)cc34)nc(NC3CC3)n2)CC1", "strain": "MTCC 183", "read by": "agar", "result": "100 µg/mL"}
{"structure": "O=C(N/N=C/c1ccccc1)c1ccc(CNc2nc3ccccc3[nH]2)cc1", "read by": "broth dilution", "result": "50 µg/mL"}
{"structure": "O=S1c2ccccc2SN1C1CC1", "strain": "10231", "result": "25 µg/mL"}
{"structure": "Clc1ccc(C(c2ccccc2)N2CCN(c3nc(NCCNc4ncnc5c(Br)cc(Br)cc45)nc(NC4CC4)n3)CC2)cc1", "strain": "MTCC 183", "read by": "agar", "result": "25 µg/mL"}

6 of the rows above, restated:

structure | strain | read by | conditions | result
CCCCCCCCCCCOC[n+]1cccc(NCn2cnc3ccccc32)c1 | ATCC 10231 | - | - | 70 µM
CC(C)N1CCN(c2nc(NCCNc3ncnc4c(Br)cc(Br)cc34)nc(NC3CC3)n2)CC1 | MTCC 183 | agar | - | 100 µg/mL
CCCCCCCCCCCCOC[n+]1cccc(NCNc2ccc[n+](COCCCCCCCCCCCC)c2)c1 | ATCC 10231 | - | - | 93 µM
N#Cc1ccc(Nc2nc(Oc3cccc4cccnc34)nc(N3CCN(c4ccccc4)CC3)n2)cc1C(F)(F)F | MTCC 183 | agar | - | 50 µg/mL
CCN(CC)c1ccc(/C=N/NC(=O)c2ccc(CNc3nc4ccccc4[nH]3)cc2)cc1 | - | broth dilution | - | 100 µg/mL
CCN(CC)C(=O)/C=C/c1ccccc1 | - | - | - | 0.002 µg/mL